Compound potency records, mixed from different reports. Data source: NIAID ChemDB in PubChem.

Common to all: tests in culture; organism: Herpes simplex virus 2; measure: inhibition

For "inactive" no cut-off is given.

smiles	strain	cell line	method	tested at	value
O=c1[nH]c(=O)n([C@@H]2C[C@H](O)[C@@H](CO)O2)cc1CCCl		HEP-2	cytopathic effect	100 µg/mL	≥25%
Nc1nc2c(ncn2COC(CO)CO)c(=O)[nH]1	G	WI-38	plaque count	2 µM	90%
O=c1[nH]c(=O)n([C@H]2C[C@H](O)[C@@H](CO)O2)cc1CCCl	G	PRK	cytopathic effect	2.1 µg/mL	≥25%
O=c1[nH]c(=O)n([C@H]2C[C@H](O)[C@@H](CO)O2)cc1CCCCl		HEP-2	cytopathic effect	30 µg/mL	≥25%
CCCCC/C=C\C/C=C\CCCCCCCC(=O)OCC(CO[C@@H]1O[C@H](CO)[C@@H](O)[C@H](O)[C@H]1O)OC(=O)CCCCCCC/C=C\C/C=C\CCCCC	186	VERO	plaque count	50 µg/mL	50%
C/C=C/c1cn([C@H]2C[C@H](O)[C@@H](CO)O2)c(=O)[nH]c1=O	333	HELA BU	plaque count	10 µM	96%
O=c1ccn([C@H]2C[C@H](O)[C@@H](CO)O2)c(=O)[nH]1		HeLa	virus yield	50 µM	80%
CC12CC[C@H](OS(=O)(=O)O)CC1=CCC1C2CCC2(C)C(C(=O)CO)CCC12	G	VERO	plaque count	40 µg/mL	0%
C[C@H](CCC(=O)NCCCCN(CCCNC(=O)CC[C@@H](C)[C@H]1CC[C@H]2[C@@H]3[C@H](OS(=O)(=O)O)C[C@@H]4C[C@H](OS(=O)(=O)O)CC[C@]4(C)[C@H]3C[C@H](OS(=O)(=O)O)[C@]12C)C(=O)CC[C@@H](C)[C@H]1CC[C@H]2[C@@H]3[C@H](OS(=O)(=O)O)C[C@@H]4C[C@H](OS(=O)(=O)O)CC[C@]4(C)[C@H]3C[C@H](OS(=O)(=O)O)[C@]12C)[C@H]1CC[C@H]2[C@@H]3[C@H](OS(=O)(=O)O)C[C@@H]4C[C@H](OS(=O)(=O)O)CC[C@]4(C)[C@H]3C[C@H](OS(=O)(=O)O)[C@]12C	G	CaSki	plaque count	10 µg/mL	37%
Nc1nc(=O)n([C@@H]2O[C@H](CO)[C@@H](O)[C@@H]2F)cc1I	G	PRK	cytopathic effect	0.03 µg/mL	≥25%
O=c1ccn([C@@H]2O[C@H](CO)[C@@H](O)[C@@H]2F)c(=O)[nH]1	G	VERO	virus yield	2.5 µM	97.9%
CCCCCCCC/C=C\CCCCCCCC(=O)OC(COC(=O)CCCCCCCCCCC)CO[C@@H]1O[C@H](CO)[C@@H](O)[C@H](O)[C@H]1O	186	VERO	plaque count	50 µg/mL	17%
CC12CC[C@H](OS(=O)(=O)O)CC1=CCC1C2CCC2(C)C(C(=O)COS(=O)(=O)O)CCC12	G	VERO	plaque count	40 µg/mL	18.2%
CCCCCCCCCCCCCCCCCCCCCC(=O)OC(COC(=O)CCCCCCCCCCCCCCCCC)CO[C@@H]1O[C@H](CO)[C@@H](O)[C@H](O)[C@H]1O	186	VERO	plaque count	50 µg/mL	inactive
CN1C(=O)NC(=O)N([C@H]2C[C@H](O)[C@@H](CO)O2)C1(C)C	35D	BHK-21	plaque count	25 µM	80%
O=C(O)C(O)c1ccccc1	Strain 333	CaSki Cells	plaque count	26.4 µg/mL	99.9%
CCCc1cn([C@H]2C[C@H](O)[C@@H](CO)O2)c(=O)[nH]c1=O	333	HeLa	plaque count	25 µM	>99%
CC(C)CCCC(COS(=O)(=O)O)C1CCC2C3CC=C4C[C@H](O)[C@@H](OS(=O)(=O)O)CC4(C)C3CCC12C	G	VERO	plaque count	40 µg/mL	54.5%
O=c1[nH]c(=O)n([C@H]2C[C@H](O)[C@@H](CO)O2)cc1/C=C/C(F)(F)F	333	HELA BU	plaque count	10 µM	81%
O=c1[nH]c(=O)n([C@@H]2O[C@H](CO)[C@@H](O)[C@@H]2F)cc1I	G	VERO	virus yield	0.5 µM	88%
O=C(O)C(O)c1ccccc1	G	CaSki	plaque count	10 µg/mL	100%
CCCCC/C=C\C/C=C\CCCCCCCC(=O)OCC(CO[C@@H]1O[C@H](CO)[C@H](O)[C@H](O)[C@H]1O)OC(=O)CCCCCCC/C=C\C/C=C\CCCCC	186	VERO	plaque count	50 µg/mL	50%
CC12CC[C@H](O)CC1=CCC1C2CCC2(C)C(C(=O)COS(=O)(=O)O)CCC12	G	VERO	plaque count	40 µg/mL	11.4%
CSc1cnc(=O)n([C@H]2C[C@H](O)[C@@H](CO)O2)c1	333	HeLa	plaque count	100 µM	0%
O=c1[nH]c(=O)n([C@H]2C[C@H](O)[C@@H](CBr)O2)cc1CCBr		HEP-2	cytopathic effect	100 µg/mL	≥25%
O=c1[nH]c(=O)n([C@@H]2O[C@H](CO)[C@@H](O)[C@@H]2F)cc1I	G	PRK	cytopathic effect	0.02 µg/mL	≥25%
CCCCCCCCCCCCCCCCCCCCCC(=O)OCC(CO[C@@H]1O[C@H](CO)[C@H](O)[C@H](O)[C@H]1O)OC(=O)CCCCCCCCCCCCC	186	VERO	plaque count	50 µg/mL	25%

Inhibition is in % at the dose shown (toxicity tests: loss of growth or viability). Blank or dashed fields: not listed here. Neighbouring rows are from separate reports.